PubChem BioAssay AID504761, Drosophila RNAi Screening Center – 2011

- Assay: 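Fly genes whose silencing reduces dengue virus type 2 infection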 (primary screen)
- Cells: D.Mel-2 cells from Drosophila
- Knock-down reagent: long dsRNA against Drosophila genes
- Treatment: infection with dengue virus type 2; dose and infection time not stated
- Read-out: 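Per well on two replicate plates, imaging gave the percent of cells positive for viral envelope protein, ranked by infection, and a nuclear count of cells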
- Scale: infection score: higher = more virus-infected cells; cell count: higher = more cells in the well
- Hit rule: 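Very low infection ranking in both replicate wells (chance probability at most 0.065), then a retest showing infection dropped 1.5-fold or more at p below 0.05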
- Meaning of the calls: active = confirmed: knock-down lowers infection; inactive = not picked or not confirmed
In all, the deposit lists about 22,000 reagents; this is an unselected part of those that have a named target and a result. Over the whole deposit, 116 (0.52%) are marked active. 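Calls depend on retest data that are not deposited; infection was ranked per plate without normalising between plates; the unit of the infection score is not given.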 Raw values vary from plate to plate and are shown uncorrected. Entries without a mark were called inactive. Reagents against one gene are numbered here. No sequences are given here. The record does not give: the amount of reagent, the time to read-out.

gene	dsRNA no.	infection score, replicate 1	infection score, replicate 2	cell count, replicate 1	cell count, replicate 2
CG18585	1	6.43	1.99	6438	6590
MtnB	1	10.5	24.1	6365	3981
MtnB	2	2.26	14.6	972	5428
SNF4Agamma	1	1.5	3.57	5817	5857
SNF4Agamma	2	0.89	2	6079	6500
SNF4Agamma	3	12.9	13.8	5611	5362
SNF4Agamma	4	3.59	3.71	4148	4501
Lar	1	0.99	0.15	6284	6132
Lar	2	13	27.4	6476	5891
Su(P)	1	2.55	0.78	6431	6252
Su(P)	2	8.94	7.93	6464	6104
pcx	1	6.39	1.34	2034	6643
pcx	2	10.7	1.88	6137	6585
pcx	3	4.86	2.45	6332	6738
pcx	4	7.6	2.41	6656	6311
pcx	5	1.29	4.85	6507	6099
pcx	6	4.29	1.86	6298	6127
CG43773	1	11.2	11.3	6759	6684
CG43773	2	1.69	15.5	6332	6885
CG43773	3	8.16	24	5882	5621
Nhe2	1		5.75	652	6677
Nhe2	2	13.6	8.09	3693	6194
sta	1	5.18	2.46	6019	6349
sta	2	9.55	8.6	1749	2197
